The values that follow come from paper PMC10076671, “Spider venom-derived peptide JZTX-14 prevents migration and invasion of breast cancer cells via inhibition of sodium channels” (Frontiers in Pharmacology, 2023).

Where a SMILES comes first, the peptide text is derived from it. Bridges are numbered along the chain shown (N, C = ends).

This data set has as its system MDA-MB-231 cells. The data set can be described thus: RNA sequencing, differentially expressed genes. Type of data set: cell-based, human. Conditions: 12.5 μM, 48 h vs untreated; |log2 fold change| > 0.585 and p < 0.05; n = 3 samples per group. How it is done:
Total RNA was extracted from untreated (C) MDA-MB-231 cells and MDA-MB-231 cells treated with a concentration of 12.5 μM JZTX-14 (GL) for 48 h using TRIzol reagent. RNA concentration was first quantified using a NanoDrop 2000 spectrophotometer and further accurately quantified using an Agilent 2100/4200 for RNA sample mass and concentration. The extracted total RNA was stored at −70°C. The sample mRNA was enriched with magnetic beads with Oligo (dT), and then the mRNA was broken into short fragments which subsequently used as a template to synthesize the first strand of cDNA with six-base random primers. The second cDNA strand was synthesized by adding buffer, dNTPs, and enzymes, and the acquired double-stranded cDNA was purified, end-repaired, A-tailed, and connected to sequencing junctions. Next, the fragment size was selected and the cDNA library was enriched by PCR amplification, followed by accurate qualification of the effective concentration of the library using qPCR. After library quality control, PE150 sequencing was performed using Illumina Novaseq6000 platform (BerryGenomics, Beijing, China).
The reads after rRNA removal were compared with the reference genome using Hisat2 software. Gene level quantification was performed separately for each sample using FeatureCount and combined to obtain the gene expression matrix of all samples. Correlation coefficients between samples were calculated based on the expression values (FPKM) of genes in each sample. Differential expression significance analysis was performed using edgeR with |log2(Fold Change)|> 0.585 and p-value < 0.05 as parameters to obtain the list of different genes for different comparative combinations.

Take `CC[C@H](C)[C@H](NC(=O)[C@@H]1CSSC[C@@H]2NC(=O)[C@@H]3CCCN3C(=O)[C@@H]3CCCN3C(=O)[C@H](CCC(N)=O)NC(=O)CNC(=O)[C@@H]3CCCN3C(=O)[C@H](Cc3c[nH]cn3)NC(=O)[C@@H]3CSSC[C@H](NC(=O)[C@H](C)NC(=O)[C@H](CC(C)C)NC(=O)CNC(=O)[C@H](CO)NC(=O)[C@H](CSSC[C@H](NC(=O)CN)C(=O)N[C@@H](CCC(N)=O)C(=O)N[C@@H](CCCCN)C(=O)N[C@@H](Cc4ccccc4)C(=O)N[C@@H](Cc4ccccc4)C(=O)N[C@@H](Cc4c[nH]c5ccccc45)C(=O)N[C@@H]([C@@H](C)O)C(=O)N3)NC2=O)C(=O)N[C@@H]([C@@H](C)O)C(=O)N[C@@H](Cc2c[nH]c3ccccc23)C(=O)N2CCC[C@H]2C(=O)N[C@@H]([C@@H](C)O)C(=O)N[C@@H](CCC(=O)O)C(=O)N[C@@H]([C@@H](C)CC)C(=O)N1)C(=O)N[C@@H](CC(C)C)C(N)=O` [JZTX-14] (H-GCQKFFWTCHPGQPPCCSGLACTWPTEICIL-NH2; disulfide 2-17, 9-22, 16-29): the “Number of differentially expressed genes” value is listed as 338, the “Number of downregulated genes” value is given as 154 and the “Number of upregulated genes” value turned out to be 184.
